Source: ChEMBL document CHEMBL5214907 (J Med Chem, 2021)

Protein sequences, listed by entry. Tags and fused reporters are not part of them. Residues count along the entry.
UniProt P43144, 26-479 limits assumed: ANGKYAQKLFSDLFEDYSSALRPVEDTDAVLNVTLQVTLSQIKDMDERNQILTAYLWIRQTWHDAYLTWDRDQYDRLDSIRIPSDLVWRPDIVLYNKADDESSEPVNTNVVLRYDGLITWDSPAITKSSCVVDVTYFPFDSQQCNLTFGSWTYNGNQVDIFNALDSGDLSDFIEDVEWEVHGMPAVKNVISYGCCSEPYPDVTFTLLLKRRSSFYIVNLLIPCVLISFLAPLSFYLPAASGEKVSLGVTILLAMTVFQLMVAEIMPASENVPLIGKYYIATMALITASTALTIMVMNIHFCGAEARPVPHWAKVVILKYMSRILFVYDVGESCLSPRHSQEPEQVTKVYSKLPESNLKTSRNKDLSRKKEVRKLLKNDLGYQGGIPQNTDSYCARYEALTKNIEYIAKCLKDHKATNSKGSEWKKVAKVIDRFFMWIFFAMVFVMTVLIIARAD
UniProt Q9JLB5, 25-447 limits assumed: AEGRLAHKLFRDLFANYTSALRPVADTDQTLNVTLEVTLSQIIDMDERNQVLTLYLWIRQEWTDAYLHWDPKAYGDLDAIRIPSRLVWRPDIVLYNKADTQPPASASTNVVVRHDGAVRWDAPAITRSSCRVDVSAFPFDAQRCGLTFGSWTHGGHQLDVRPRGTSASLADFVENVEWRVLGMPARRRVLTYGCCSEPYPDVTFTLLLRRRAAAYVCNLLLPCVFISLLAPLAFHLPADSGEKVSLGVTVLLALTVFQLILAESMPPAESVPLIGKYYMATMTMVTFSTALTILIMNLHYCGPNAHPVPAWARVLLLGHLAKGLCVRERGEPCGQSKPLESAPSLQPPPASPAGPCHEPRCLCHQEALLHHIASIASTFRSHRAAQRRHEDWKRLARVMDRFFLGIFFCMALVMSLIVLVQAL
UniProt Q9UGM1, 23-479 limits assumed: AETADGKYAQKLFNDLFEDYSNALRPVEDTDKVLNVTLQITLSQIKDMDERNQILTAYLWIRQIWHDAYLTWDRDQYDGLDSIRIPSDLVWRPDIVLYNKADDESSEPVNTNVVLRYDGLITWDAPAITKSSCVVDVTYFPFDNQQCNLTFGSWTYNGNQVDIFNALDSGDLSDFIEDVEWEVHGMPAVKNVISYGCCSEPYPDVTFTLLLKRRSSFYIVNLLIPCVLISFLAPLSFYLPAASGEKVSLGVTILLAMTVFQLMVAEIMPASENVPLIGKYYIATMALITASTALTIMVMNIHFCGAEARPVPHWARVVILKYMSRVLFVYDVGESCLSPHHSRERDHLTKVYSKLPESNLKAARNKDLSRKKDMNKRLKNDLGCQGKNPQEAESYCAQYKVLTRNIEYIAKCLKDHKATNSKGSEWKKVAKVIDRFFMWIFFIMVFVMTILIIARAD
UniProt Q9GZZ6, 25-450 limits assumed: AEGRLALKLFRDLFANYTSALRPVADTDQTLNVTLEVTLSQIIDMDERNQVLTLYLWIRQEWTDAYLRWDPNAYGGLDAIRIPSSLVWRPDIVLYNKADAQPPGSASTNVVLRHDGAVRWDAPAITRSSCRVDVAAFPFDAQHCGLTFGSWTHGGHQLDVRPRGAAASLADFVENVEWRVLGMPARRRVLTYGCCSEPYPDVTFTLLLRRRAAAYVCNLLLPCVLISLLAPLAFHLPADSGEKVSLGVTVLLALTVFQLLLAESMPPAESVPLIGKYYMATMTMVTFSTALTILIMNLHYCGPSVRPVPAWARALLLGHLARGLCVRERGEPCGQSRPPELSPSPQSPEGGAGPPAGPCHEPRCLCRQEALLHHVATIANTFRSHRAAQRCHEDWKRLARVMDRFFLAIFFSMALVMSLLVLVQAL

What was measured:
[1] = target: Nicotinic acetylcholine receptor alpha9/alpha10 (Rattus norvegicus, UniProt P43144+Q9JLB5); assay: Inhibition of rat alpha9alpha10 nAChR expressed in xenopus oocytes assessed as inhibition of Ach- induced response incubated for 5 mins in presence of Ach stimulation by voltage-clamp based electrophysiological method; details: oocyte
[2] = target: Neuronal acetylcholine receptor; alpha9/alpha10 (Homo sapiens, UniProt Q9UGM1+Q9GZZ6); details: oocyte

| SMILES | IC50 [1] [nM] | IC50 [2] [nM] |
| --- | --- | --- |
| N=C(N)NCCC[C@H](NC(=O)[C@@H]1C/C=C\C[C@@H]2NC(=O)[C@@H](NC(=O)CN)CSSC[C@H](NC(=O)[C@H](CCCNC(=N)N)NC(=O)[C@@H]3CCCN3C(=O)[C@H](CC(=O)O)NC(=O)[C@H](CO)NC2=O)C(=O)N[C@@H](CCCNC(N)=O)C(=O)N[C@@H](Cc2ccc(O)cc2)C(=O)N[C@@H](CCCNC(=N)N)C(=O)N1)C(=O)O | 1.47 | – |
| N=C(N)NCCC[C@H](NC(=O)[C@@H]1C/C=C/C[C@@H]2NC(=O)[C@@H](NC(=O)CN)CSSC[C@H](NC(=O)[C@H](CCCNC(=N)N)NC(=O)[C@@H]3CCCN3C(=O)[C@H](CC(=O)O)NC(=O)[C@H](CO)NC2=O)C(=O)N[C@@H](CCCNC(N)=O)C(=O)N[C@@H](Cc2ccc(O)cc2)C(=O)N[C@@H](CCCNC(=N)N)C(=O)N1)C(=O)O | 1.15 | – |
| C[C@@H](O)[C@@H]1NC(=O)[C@@H]2CSSC[C@@H](C(=O)N[C@@H](Cc3ccc(O)cc3)C(=O)O)NC(=O)[C@H](CCC(N)=O)NC(=O)[C@H](Cc3ccc(O)c(I)c3)NC(=O)[C@H](CCCNC(N)=O)NC(=O)[C@H](CSSC(C)(C)[C@@H](NC(=O)CN)C(=O)N2)NC(=O)[C@H](CCCNC(=N)N)NC(=O)[C@@H]2CCCN2C(=O)[C@H](CC(=O)O)NC1=O | – | > 1200 |
| C[C@@H](O)[C@@H]1NC(=O)[C@@H]2CSSC(C)(C)[C@@H](C(=O)N[C@@H](Cc3ccc(O)cc3)C(=O)O)NC(=O)[C@H](CCC(N)=O)NC(=O)[C@H](Cc3ccc(O)c(I)c3)NC(=O)[C@H](CCCNC(N)=O)NC(=O)[C@H](CSSC[C@@H](NC(=O)CN)C(=O)N2)NC(=O)[C@H](CCCNC(=N)N)NC(=O)[C@@H]2CCCN2C(=O)[C@H](CC(=O)O)NC1=O | – | 24 |
